Here are results for one compound from BindingDB's records for doi:10.1016/j.jmb.2005.09.095 (Georgia State University, 2005).

For assay [1], the target named is T1, Dimer of Gag-Pol polyprotein [501-599,Q508K,L534I,L564I,C568A,C596A,G574S] (Human immunodeficiency virus 1, UniProt P03367, C568A/C596A/G574S/L534I/L564I/Q508K).
T1 construct: 501-599
Kind of assay: Protease Inhibition Assay. Particulars: pH 5; 22 °C. An excerpt:
(§1) The Ki values were obtained from the IC50 values estimated from an inhibitor dose-response curve with the spectroscopic assay and the chromogenic substrate.

Assay [2] deals with T2, Dimer of Gag-Pol polyprotein [501-599,Q508K,L534I,L564I,C568A,C596A] (Human immunodeficiency virus 1, UniProt P03367, C568A/C596A/L534I/L564I/Q508K).
T2 construct: 501-599
Put plainly: Protease Inhibition Assay. As to conditions: pH 5; 22 °C.
Text: as §1

With `CCCC[C@@H](CN[C@@H](CCCC)C(=O)N[C@@H](CCC(N)=O)C(=O)N[C@@H](CCCNC(=N)N)C(N)=O)NC(=O)[C@@H](NC(=O)[C@@H](NC(C)=O)[C@@H](C)O)[C@@H](C)CC` [N-1465], the Ki in assay [1] stood at 3300 nM; in assay [2] it was 2170 nM.
